PubChem BioAssay AID504761, Drosophila RNAi Screening Center | 2011

- Aim: 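Insect host genes that dengue virus relies on to spread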 (primary screen)
- System: D.Mel-2 cells from Drosophila
- Reagent: long dsRNA against Drosophila genes
- Challenge: infection with dengue virus type 2; dose and infection time not stated
- Detection: 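Cells stained for dengue envelope protein and imaged; percent of infected cells per well on duplicate plates, ranked by infection, with stained nuclei counted for cell number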
- Scale: infection score: higher = more virus-infected cells
- Active means: 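Very low infection ranking in both replicate wells (chance probability at most 0.065), then a retest showing infection dropped 1.5-fold or more at p below 0.05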
- Meaning of the calls: active = confirmed: knock-down lowers infection; inactive = not picked or not confirmed
In all, the deposit lists about 22,000 reagents; shown is a random part of those with a known target gene and a result. In the full data, 116 (0.52%) are marked active. 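Calls depend on retest data that are not deposited; infection was ranked per plate without normalising between plates; the unit of the infection score is not given.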 Names joined by + are all predicted targets of the reagent. Further read-outs or replicates are left out here. Not given: the amount of reagent, the time to read-out.

| predicted target | DRSC id | infection score, replicate 1 | Call |
| --- | --- | --- | --- |
| ric8b + ric8a | DRSC18104 | 3.26 | inactive |
| Strica | DRSC04920 | 3.23 | inactive |
| CG11964 | DRSC14447 | 18.5 | inactive |
| CG11964 | DRSC25900 | 2.18 | inactive |
| CG12020 | DRSC08226 | 2.63 | inactive |
| CG12020 | DRSC28730 | 27.6 | inactive |
| Sec10 | DRSC17053 | 2.02 | inactive |
| Sec10 | DRSC29106 | 17.8 | inactive |
| SPE | DRSC15135 | 8.55 | inactive |
| SPE | DRSC25455 | 4.81 | inactive |
| MED25 | DRSC22981 | 3.78 | inactive |
| MED25 | DRSC25776 | 4.11 | inactive |
| Ufc1 | DRSC07156 | 10.1 | inactive |
| CG5854 | DRSC15894 | 6.11 | inactive |
| CG5854 | DRSC28599 | 11.8 | inactive |
| ND2 (retired record) | DRSC21274 | 0.75 | inactive |
| nemy | DRSC05357 | 1.69 | inactive |
| nemy | DRSC07262 | 15 | inactive |
| nemy | DRSC26532 | 3.05 | inactive |
| SdhA | DRSC07547 | 10.6 | inactive |
| CG15876 | DRSC08484 | 5.13 | inactive |
| CG15876 | DRSC27697 | 10.9 | inactive |
| CG42506 (retired record) + CG43759 | DRSC19464 | 12.6 | inactive |
| CG42506 (retired record) + CG43759 | DRSC19543 | 6.68 | inactive |
| CG42506 (retired record) + CG43759 | DRSC26393 | 2.62 | inactive |
